Anti-infective test results gathered from many reports (values: NIAID ChemDB through PubChem).

All rows: target-level tests; species: Hepatitis C virus; target: Nonstructural protein 5B; read-out: inhibition

Percent inhibition refers to the dose given; in toxicity tests it is the harm to the cells.

smiles,dose,result
Nc1nc(N)c2ncn([C@@H]3CO[C@H](COP(=O)(O)OP(=O)(O)OP(=O)(O)O)O3)c2n1,50 µM,82%
O=C(NCCc1cccnc1)c1ccc(S(=O)(=O)Nc2ccc(N3CCOCC3)cc2)cc1,0.1 µg/mL,47%
CSc1nc(Nc2ccc(N3CCOCC3)cc2)cc(N2CCN(CC(=O)NCC3CC3)CC2)n1,1 µg/mL,70%
NS(=O)(=O)c1ccc(CCNc2cc(C(=O)Nc3ccc4cn[nH]c4c3)c(F)cc2F)cc1,0.1 µg/mL,25%
CCOC(=O)C1=CN(N2CCN(c3nc(Nc4ccc5cn[nH]c5c4)nc(OC)n3)CC2)C(SC)N=C1,10 µg/mL,36%
CN(C)CCN(Cc1ccccc1)C(=O)c1ccc(S(=O)(=O)Nc2ccc(N3CCOCC3)cc2)cc1,0.1 µg/mL,48%
O=C(Nc1ccc2cn[nH]c2c1)c1cc(NCCc2ccccn2)c(F)cc1F,1 µg/mL,39%
COc1nc(Nc2ccc3cn[nH]c3c2)nc(NN2CCN(C)CC2)n1,10 µg/mL,69%
O=C(c1ccc(S(=O)(=O)Nc2ccc(N3CCOCC3)cc2)cc1)N(Cc1ccccn1)Cc1ccccn1,10 µg/mL,90%
O=C(Nc1ccc2[nH]ncc2c1)c1cc(NCCO)c(F)cc1F,0.1 µg/mL,0%
CON1C(Nc2ccc3cn[nH]c3c2)=NC(NC(C)C)=NC1NC(C)C,1 µg/mL,23%
O=C(Nc1ccc2cn[nH]c2c1)c1cc(NCCCn2ccnc2)c(F)cc1F,10 µg/mL,76%
Nc1ccn([C@H]2CO[C@@H](COP(=O)(O)OP(=O)(O)OP(=O)(O)O)O2)c(=O)n1,50 µM,85%
CSc1nc(Nc2ccc(N3CCOCC3)cc2)cc(N2CCN(CC(=O)NCCCN3CCOCC3)CC2)n1,1 µg/mL,77%
COc1nc(Nc2ccc3cn[nH]c3c2)nc(NC2CC2)n1,0.1 µg/mL,40%
CSc1nc(Nc2ccc(N3CCOCC3)cc2)cc(N2CCN(CC(=O)NCCCN3CCCC3)CC2)n1,1 µg/mL,74%
CNC1N=C(OC)N=C(Nc2ccc3cn[nH]c3c2)N1CN,0.1 µg/mL,19%
CC(C)CNc1cc(C(=O)Nc2ccc3cn[nH]c3c2)c(F)cc1F,0.1 µg/mL,0%
Cc1cn([C@H]2CO[C@@H](COP(=O)(O)OP(=O)(O)OP(=O)(O)O)O2)c(=O)[nH]c1=O,100 µM,47%
CCN(CCO)C(=O)CN1CCN(c2cc(Nc3ccc(N4CCOCC4)cc3)nc(SC)n2)CC1,1 µg/mL,72%
O=C(Nc1ccc2[nH]ncc2c1)c1cc(NCCCn2ccnc2)c(F)cc1F,0.1 µg/mL,29%
COc1nc(NCCN2CCOCC2)nc(Nc2ccc3[nH]ncc3c2)n1,1 µg/mL,11%
Nc1nc2c(ncn2[C@@H]2CO[C@H](COP(=O)(O)OP(=O)(O)OP(=O)(O)O)O2)c(=O)[nH]1,50 µM,6%
CNC(=O)CN1CCN(c2nc(Nc3ccc4cn[nH]c4c3)nc(OC)n2)CC1,10 µg/mL,32%
O=C(NCCN1CCOCC1)c1ccc(S(=O)(=O)Nc2ccc(N3CCOCC3)cc2)cc1,10 µg/mL,94%
COc1nc(NCCN(C)C)nc(Nc2ccc3[nH]ncc3c2)n1,0.1 µg/mL,5%
CN(C)CCNc1cc(C(=O)Nc2ccc3[nH]ncc3c2)c(F)cc1F,10 µg/mL,82%

For reference, 3 entries again:

smiles | dose | result
CCOC(=O)C1=CN(N2CCN(c3nc(Nc4ccc5cn[nH]c5c4)nc(OC)n3)CC2)C(SC)N=C1 | 10 µg/mL | 36%
CN(C)CCNc1cc(C(=O)Nc2ccc3[nH]ncc3c2)c(F)cc1F | 10 µg/mL | 82%
CSc1nc(Nc2ccc(N3CCOCC3)cc2)cc(N2CCN(CC(=O)NCCCN3CCOCC3)CC2)n1 | 1 µg/mL | 77%

Lines come from different laboratories, so protocols vary.